Anti-infective test results gathered from many reports (values: NIAID ChemDB through PubChem).

Shared fields: whole-cell or culture tests; organism: Hepatitis C virus; read by: replicon; read-out: EC50

Lines come from different laboratories, so protocols vary. ECn is the concentration giving n% inhibition of infection, replication or growth. Two numbers with a dash give a range or band. An empty or dashed field is not shown.

CCCCCCCCCCNc1nc(=O)c2nc(Br)n(Cc3ccc(OC)cc3)c2c(=O)[nH]1 ; cells: Huh7 ; result: <10 µM
CC(C)S(=O)(=O)NC(=O)c1c(-c2ccc[nH]c2=O)c2c3occc3ccc2n1Cc1ccccc1F ; result: <0.5 µM
CCO[C@]1(CO)O[C@@H](n2ccc(N)nc2=O)[C@H](O)[C@@H]1O ; cells: Huh7 ; result: >20 µM
Brc1cccc(-c2nc(Nc3ccncc3)c3cccnc3n2)c1 ; cells: Huh7 ; result: 0.57 µM
CS(=O)(=O)NC(=O)c1c(-c2ccc[nH]c2=O)c2c3c(ccc2n1Cc1cc(F)ccc1F)CCCO3 ; result: <1 µM
C=CC1C[C@@]1(NC(=O)[C@@H]1C[C@@H](Oc2cc(-c3ccccc3)nc3cc(OC)ccc23)CN1C(=O)[C@@H](NC(=O)N(C)C(C)(C)C)C(C)(C)C)C(=O)NS(=O)(=O)C1(CC2CC2)CC1 ; cells: Huh7 ; strain: 1b ; result: 0.05–0.5 µM
CNC(=O)c1c(-c2ccc(F)cc2)oc2cc(-c3cnc[nH]3)c(OC)cc12 ; cells: Huh7 ; result: <10 µM
CC(C)(C)OC(=O)n1nc(N)c2cc(Cn3c(C(=O)O)c(-c4ccc[nH]c4=O)c4c5occc5c(F)cc43)ccc21 ; result: <0.5 µM
CC(C)(C)OC(=O)N(c1ccncc1)c1nc(-c2cc(Cl)ccc2F)nc2ncccc12 ; cells: Huh7 ; result: 0.13 µM
Clc1ncnc2c1ncn2C1C[C@H]2C[C@@H]1[C@@H]1CSC[C@H]21 ; cells: Huh ; strain: 1b ; result: 10 µM
C=C[C@H]1C[C@@]1(NC(=O)[C@@H]1C[C@@H](Oc2cc(C3CC3)nc3cc(Cl)ccc23)CN1C(=O)[C@@H](NC(=O)OC(C)(C)C)C(C)(C)C)C(=O)OCC ; cells: Huh7 ; strain: 1b ; result: 0.05–0.5 µM
CCCCCCCCNc1nc(=O)c2nc(Br)n(Cc3ccccc3)c2c(=O)[nH]1 ; cells: Huh7 ; result: <10 µM
COc1ccc(-c2cnc3nc(N)nc(N4CCN(C(=O)c5ccncc5)CC4)c3n2)cc1OC ; cells: Huh7 ; strain: HCV replicon ; result: <0.3 µM
CCCCCCCCNc1nc(=O)c2nc(Br)n(Cc3ccc(OC)cc3)c2c(=O)[nH]1 ; cells: Huh7 ; result: >10 µM
CC(C)S(=O)(=O)NC(=O)c1c(-c2ccc[nH]c2=O)c2c3c(c(F)cc2n1Cc1csc(C(N)=O)c1)CCO3 ; result: <0.5 µM
COc1ccc(-c2cnc3nc(N)nc(N4CCN(C(=O)NCCc5cccs5)CC4)c3n2)cc1OC ; cells: Huh7 ; strain: HCV replicon ; result: <0.3 µM
C=CC1CC1(NC(=O)[C@@H]1C[C@@H](Oc2cc(-c3ccccc3)nc3cc(OC)ccc23)CN1C(=O)[C@@H](NC(=O)CC1CC1)C(C)(C)C)C(=O)NS(=O)(=O)C1(C)CC1 ; cells: Huh7 ; strain: 1b ; result: <0.05 µM
COc1ccc(-c2cnc3nc(N)nc(N4CCN(C(=O)Nc5cccc(Cl)c5)CC4)c3n2)cc1OC ; cells: Huh7 ; strain: HCV replicon ; result: <0.3 µM
O=C(/C=C/c1ccc(O)cc1)c1ccc(O)cc1O ; strain: 1b ; result: 6.2 µg/mL
O=c1ccn([C@@H]2OC(CO)(CO)[C@@H](O)[C@H]2O)c(=O)[nH]1 ; cells: Huh7 ; result: >20 µM
CNC(=O)c1c(-c2ccc(F)cc2)oc2cc(N3CCOCC3)c(OCc3cccc(C(=O)O)c3)cc12 ; cells: Huh7 ; result: <10 µM
Nc1ncnc2c1ncn2C1C[C@H]2C[C@@H]1c1ccsc12 ; cells: Huh ; strain: 1b ; result: 3 µM
CNC(=O)c1c(-c2ccc(F)cc2)oc2cc(-c3c(C)noc3C)c(O)cc12 ; cells: Huh7 ; result: <1 µM
CNc1nc(=O)c2nc(Br)n(Cc3ccc(OC)cc3)c2c(=O)[nH]1 ; cells: Huh7 ; result: >10 µM
Nc1ccc2c(Nc3ccncc3)nc(-c3cc(Cl)ccc3F)nc2n1 ; cells: Huh7 ; result: 2.2 µM
[N-]=[N+]=N[C@]1(CO)O[C@@H](n2ccc(=O)[nH]c2=O)[C@H](O)[C@@H]1O ; cells: Huh7 ; result: >20 µM
C[C@@]1(O)[C@H](O)[C@@H](CO)O[C@H]1n1cnc2c(N)ncnc21 ; cells: Huh7 ; result: 1.8 µM
NS(=O)(=O)c1ccc(CNc2nc(NCC(F)(F)F)c3nc(-c4ccc(F)c(Cl)c4)cnc3n2)cc1 ; cells: Huh7 ; strain: HCV replicon ; result: 0.3–1 µM
C#C[C@]1(CO)O[C@@H](n2ccc(=O)[nH]c2=O)[C@H](O)[C@@H]1O ; cells: Huh7 ; result: >20 µM
Cc1ccc(C(=O)NC(C)C)cc1-c1ccc(C(=O)Nc2ccc(CN3CCS(=O)(=O)CC3)cc2)cc1 ; strain: 1b ; result: 5.1 µM
COc1ccc2c(O[C@@H]3C[C@@H](C(=O)NC4(C(=O)NS(=O)(=O)C5(Cc6ccccc6)CC5)CC4)N(C(=O)[C@@H](NC(=O)OC(C)(C)C)C(C)(C)C)C3)cc(-c3ccccc3)nc2c1 ; cells: Huh7 ; strain: 1b ; result: 5–50 µM
Cc1cccc(Cn2c(C(=O)NS(C)(=O)=O)c(-c3ccc[nH]c3=O)c3c4occc4ccc32)c1F ; result: <0.5 µM
CNC(=O)c1c(-c2ccc(F)cc2)oc2cc(N(CC(=O)O)S(C)(=O)=O)c(OC(C)C)cc12 ; cells: Huh7 ; result: <1 µM
CS(=O)(=O)NC(=O)c1c(-c2ccc[nH]c2=O)c2c3occc3ccc2n1Cc1cc(F)ccc1F ; result: <0.5 µM
C=C[C@H]1C[C@@]1(NC(=O)[C@@H]1C[C@@H](Oc2cc(-c3ccccc3)nc3cc(OC)ccc23)CN1C(=O)[C@@H](NC(=O)OC(C)(C)C)C(C)(C)C)C(=O)NS(=O)(=O)C1(CCOCc2ccccc2)CC1 ; cells: Huh7 ; strain: 1b ; result: <0.05 µM
COc1cnc(O[C@@H]2C[C@H]3C(=O)N[C@]4(C(=O)NS(=O)(=O)C5CC5)C[C@H]4/C=C\CCCCC[C@@H](NC(=O)Nc4ccc5c(c4)B(O)OC5)C(=O)N3C2)c2cc(Cl)ccc12 ; strain: 1a ; result: 0.06 µM
O=C(O)c1c(-c2ccc[nH]c2=O)c2c3ccoc3ccc2n1Cc1cc(F)ccc1F ; result: >1.5 µM
Fc1ccc(Cl)cc1-c1nc(Nc2ccncc2)c2ccc(NCCN3CCCCC3)nc2n1 ; cells: Huh7 ; result: 1.6 µM
COc1ccc(-c2cnc3nc(N)nc(N4CCN(C(=O)Nc5ccc(Br)cc5)CC4)c3n2)cc1OC ; cells: Huh7 ; strain: HCV replicon ; result: <0.3 µM
CNC(=O)c1c(-c2ccc(F)cc2)oc2cc(N(C)S(C)(=O)=O)c(OCc3c(C)noc3C)cc12 ; cells: Huh7 ; result: <1 µM
Cc1ccc(C(=O)Nc2ccc(N3CCOCC3)cc2)cc1-c1ccc(C(=O)Nc2ccc(CCN3CCS(=O)(=O)CC3)cc2)cc1 ; strain: 1b ; result: >25 µM
COc1ccc(-c2cnc3nc(N)nc(N4CCN(C(=O)COc5ccccc5)CC4)c3n2)cc1OC ; cells: Huh7 ; strain: HCV replicon ; result: <0.3 µM
CC#C[C@]1(CO)O[C@@H](n2ccc(=O)[nH]c2=O)[C@H](O)[C@@H]1O ; cells: Huh7 ; result: <20 µM
O=C(O)c1c(-c2ccc[nH]c2=O)c2c3occc3ccc2n1Cc1ccc(F)cc1F ; result: <0.5 µM
COc1ccc(-c2cnc3nc(NCc4cccs4)nc(N)c3n2)cc1OC ; cells: Huh7 ; strain: HCV replicon ; result: 0.3–1 µM
NCc1ccc(Cn2c(C(=O)O)c(-c3ccc[nH]c3=O)c3c4occc4c(F)cc32)c(F)c1 ; result: <0.5 µM
Cc1ccc(C(=O)NCCC(C)C)cc1-c1ccc(C(=O)Nc2ccc(CN3CCS(=O)(=O)CC3)cc2)cc1 ; strain: 1b ; result: 0.9 µM
CCC(C)(O)COc1cc2c(C(=O)NC)c(-c3ccc(F)cc3)oc2cc1N1CCOCC1 ; cells: Huh7 ; result: <10 µM
O=C(Nc1ccc(CN2CCS(=O)(=O)CC2)cc1)c1ccc(-c2cc(NC(=O)C3CC3)ccc2F)cc1 ; strain: 1b ; result: >25 µM
CNC(=O)c1c(-c2ccc(F)cc2)oc2cc(-c3c(C)noc3C)c(OCC3CC3)cc12 ; cells: Huh7 ; result: <1 µM
Nc1ncnc2c1ncn2C1C[C@H]2C[C@@H]1[C@@H]1CSC[C@H]21 ; cells: Huh ; strain: 1b ; result: 81 µM

A second listing of 7 rows from above:

SMILES	cells	strain	result
CCCCCCCCNc1nc(=O)c2nc(Br)n(Cc3ccccc3)c2c(=O)[nH]1	Huh7	-	<10 µM
C=CC1C[C@@]1(NC(=O)[C@@H]1C[C@@H](Oc2cc(-c3ccccc3)nc3cc(OC)ccc23)CN1C(=O)[C@@H](NC(=O)N(C)C(C)(C)C)C(C)(C)C)C(=O)NS(=O)(=O)C1(CC2CC2)CC1	Huh7	1b	0.05–0.5 µM
COc1ccc(-c2cnc3nc(N)nc(N4CCN(C(=O)Nc5ccc(Br)cc5)CC4)c3n2)cc1OC	Huh7	HCV replicon	<0.3 µM
C=C[C@H]1C[C@@]1(NC(=O)[C@@H]1C[C@@H](Oc2cc(C3CC3)nc3cc(Cl)ccc23)CN1C(=O)[C@@H](NC(=O)OC(C)(C)C)C(C)(C)C)C(=O)OCC	Huh7	1b	0.05–0.5 µM
[N-]=[N+]=N[C@]1(CO)O[C@@H](n2ccc(=O)[nH]c2=O)[C@H](O)[C@@H]1O	Huh7	-	>20 µM
C#C[C@]1(CO)O[C@@H](n2ccc(=O)[nH]c2=O)[C@H](O)[C@@H]1O	Huh7	-	>20 µM
O=C(O)c1c(-c2ccc[nH]c2=O)c2c3ccoc3ccc2n1Cc1cc(F)ccc1F	-	-	>1.5 µM